# PubChem BioAssay AID624268 (The Scripps Research Institute Molecular Screening Center, 2012)
# The entries are a selection whose mix differs from that of the whole data set. The source made the active and inactive calls.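 Rule for the calls: active = inhibition above a per-plate cutoff of the control wells' mean inhibition plus 3 SD (cut at about 5.5% in these data); inactive = the rest.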
# Tested on: methionyl-tRNA synthetase (Trypanosoma brucei brucei)
# Test: inhibition of trypanosome methionyl-tRNA synthetase – biochemical, luminescence, primary screen (AID 624268);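 note: 0% = DMSO wells median and 100% = median of wells with control inhibitor compound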
# Settings: purified T. brucei MetRS, ATP depletion, Kinase-Glo luminescence; at 11.9 µM; stronger effect = higher value
# How it was run: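 assay system = parasite MetRS enzyme | timing = 15 min preincubation, 2 h reaction, all 25 °C | evaluation = percent inhibition relative to median high and low control wells | medium = HEPES buffer containing pyrophosphatase, BSA, spermine, DTT | compound = single dose, 11.9 µM final nominal, 0.9% final DMSO | detection = Kinase-Glo luminescence, ATP depletion format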
row,SMILES,inhibition
1,CCN1CCC(Nc2cccc(F)c2)CC1,inactive: -0.41%
2,COc1ccc(C(c2nnnn2C2CCCCC2)N2CCC(n3c(=O)[nH]c4ccccc43)CC2)cc1 (stereo not drawn),inactive: 0.56%
3,CC(C)(C)n1nnnc1C(c1ccnc2ccccc12)N1CCC(n2c(=O)[nH]c3ccccc32)CC1 (stereo not drawn),inactive: -1.21%
4,Cc1ccccc1NC1(C#N)CCN(Cc2ccccc2)CC1,inactive: -0.19%
5,CN(C)c1ccc(C(=O)NCC2(N3CCCCC3)CCCCC2)cc1,inactive: -0.64%
6,Cn1c(=O)[nH]cc(N(CCCl)CCCl)c1=O,inactive: 0.16%
7,O=C(NCC1(N2CCCCC2)CCCCC1)c1ccco1,inactive: 0.22%
8,COc1cc(OC)cc(C(=O)NCC2(N3CCCCC3)CCCCC2)c1,inactive: -0.5%
9,O=c1[nH]c2ccccc2n1C1CCN(C(c2ccnc3ccccc23)c2nnnn2C2CCCCC2)CC1 (stereo not drawn),inactive: -0.16%
10,CCC(c1nnnn1C1CCCCC1)N1CCC(n2c(=O)[nH]c3ccccc32)CC1 (stereo not drawn),inactive: -0.93%
11,COc1cccc(C(c2nnnn2C2CCCCC2)N2CCC(n3c(=O)[nH]c4ccccc43)CC2)c1OC (stereo not drawn),inactive: 0.04%
12,CC(=O)N(c1ccccc1)C1CCNCC1,inactive: -0.05%
13,Cc1ccc(NC2(C#N)CCN(Cc3ccccc3)CC2)cc1,inactive: -0.14%
14,Fc1ccccc1NC1CCN(Cc2ccccc2)CC1,inactive: 0.04%
15,Cc1ccc(C(=O)NCC2(N3CCCCC3)CCCCC2)o1,inactive: -0.19%
16,CCC(CO)(C(=O)OC1CN2CCC1CC2)c1ccccc1 (stereo not drawn),inactive: -1.52%
17,COc1cc(OC)cc(C(=O)NCC2(N3CCOCC3)CCCCC2)c1,inactive: -0.84%
18,COc1cccc(C(c2nnnn2C2CCCC2)N2CCC(n3c(=O)[nH]c4ccccc43)CC2)c1OC (stereo not drawn),inactive: -0.34%
19,COc1cccc(C(=O)N(c2cc(C)cc(C)c2)C2CCN(C(=O)OC(C)(C)C)CC2)c1,inactive: -0.56%
20,CN1CCC(Nc2ccc(Cl)cc2)CC1,inactive: -1.8%
21,CN1CCC(Nc2ccc(F)c(Cl)c2)CC1,inactive: -0.4%
22,CCOc1ncccc1C(=O)NCC1(N2CCOCC2)CCCCC1,inactive: -0.53%

row,SMILES,inhibition
1,O=c1[nH]c2ccccc2n1C1CCN(C(c2cc3ccccc3o2)c2nnnn2C2CCCC2)CC1 (stereo not drawn),inactive: -0.5%
2,CCCOc1ccc(C(=O)NCC2(N(C)C)CCCCC2)cc1,inactive: 0.43%
3,O=C(O)C1(Nc2ccccc2)CCN(Cc2ccccc2)CC1,inactive: -0.68%
4,NN(c1ccccc1)C1CCN(CCc2ccccc2)CC1,inactive: 0.01%
5,CC(C)(C)OC(=O)N1CCC(Nc2ccccc2)CC1,inactive: -1.17%
6,N/C(=N\O)c1c(N)no[n+]1[O-],inactive: -1.14%
7,CCOC(=O)N1CCC(Nc2ccc(C)cc2)CC1,inactive: -1.19%
8,COc1cccc(C(c2nnnn2C(C)(C)C)N2CCC(n3c(=O)[nH]c4ccccc43)CC2)c1OC (stereo not drawn),inactive: -0.95%
9,CCCCn1nnnc1C(c1cccc(OC)c1OC)N1CCC(n2c(=O)[nH]c3ccccc32)CC1 (stereo not drawn),inactive: -0.48%
10,O=c1[nH]c2ccccc2n1C1CCN(C(c2cccs2)c2nnnn2C2CCCC2)CC1 (stereo not drawn),inactive: 0.09%
11,O=C(OC1CN2CCC1CC2)C1c2ccccc2C=Cc2ccccc21 (stereo not drawn),inactive: 0.51%
12,O=C(NCC1(N2CCOCC2)CCCCC1)c1cc(Br)ccc1Cl,inactive: -0.36%
13,COc1cc(C(=O)NCC2(N3CCOCC3)CCCCC2)cc(OC)c1C,inactive: -0.17%
14,CCCCn1nnnc1C(c1ccccc1)N1CCC(n2c(=O)[nH]c3ccccc32)CC1 (stereo not drawn),inactive: -0.38%
15,O=c1[nH]c2ccccc2n1C1CCN(C(c2ccnc3ccccc23)c2nnnn2C2CCCC2)CC1 (stereo not drawn),inactive: -0.24%
16,COc1ccc(C(=O)NCC2(N3CCOCC3)CCCCC2)cc1OC,inactive: -0.33%
17,O=c1[nH]c2ccccc2n1C1CCN(C(c2cccs2)c2nnnn2C2CCCCC2)CC1 (stereo not drawn),inactive: -0.28%
18,Cc1cc(N(CCCl)CCCl)ccc1C=O,inactive: -0.09%
19,CCCN1CCC(Nc2cc(OC)cc(OC)c2)CC1,inactive: -0.12%
20,O=c1[nH]c2ccccc2n1C1CCN(C(c2ccccc2)c2nnnn2C2CCCC2)CC1 (stereo not drawn),inactive: -0.37%
21,c1ccc(CN2CCC(Nc3ccccc3)CC2)cc1,inactive: -0.19%
22,CN(C)C1(CNC(=O)c2cccc(C#N)c2)CCCCC1,inactive: -0.54%

row,SMILES,inhibition
1,CC(C)(C)n1nnnc1C(c1cccc2ccccc12)N1CCC(n2c(=O)[nH]c3ccccc32)CC1 (stereo not drawn),inactive: -0.53%
2,CC(C)(C)OC(=O)N1CCC(N(C(=O)c2ccccc2)c2ccc(Cl)cc2)CC1,inactive: -1.26%
3,N#Cc1ccc(C(=O)NCC2(N3CCCCC3)CCCCC2)cc1,inactive: -0.41%
4,O=C(NCC1(N2CCCCC2)CCCCC1)c1cccc(C(F)(F)F)c1,inactive: 0.77%
5,CN1CCN(CCOC(=O)C(O)(c2ccccc2)c2ccccc2)CC1,inactive: -0.26%
6,CC(C)c1ccc(C(=O)NCC2(N3CCOCC3)CCCCC2)cc1,inactive: -0.6%
7,COc1ccc(NC2CCN(C(=O)OC(C)(C)C)CC2)cc1,inactive: 0.3%
8,CCCCn1nnnc1C(c1cccc2ccccc12)N1CCC(n2c(=O)[nH]c3ccccc32)CC1 (stereo not drawn),inactive: 0.07%
9,COc1cc(C(=O)NCC2(N3CCCCC3)CCCCC2)ccc1OC(F)F,inactive: -0.76%
10,O=C(NCC1(N2CCOCC2)CCCCC1)c1cc(=O)[nH]c2ccccc12,inactive: -0.77%
11,O=C(NCC1(N2CCCCC2)CCCCC1)c1ccc(OC(F)F)cc1,inactive: 0.95%
12,CC(C)(C)n1nnnc1C(c1ccccc1OC(F)(F)F)N1CCC(n2c(=O)[nH]c3ccccc32)CC1 (stereo not drawn),inactive: -1.03%
13,O=C(NCC1(N2CCCCC2)CCCCC1)c1cccc([N+](=O)[O-])c1,inactive: 0.11%
14,CSc1ccc(C(=O)NCC2(N3CCOCC3)CCCCC2)cc1,inactive: -0.57%
15,O=c1[nH]c2ccccc2n1C1CCN(C(c2ccccc2OC(F)(F)F)c2nnnn2C2CCCC2)CC1 (stereo not drawn),inactive: -0.58%
16,N#CC1(Nc2ccccc2)CCN(CCc2ccccc2)CC1,inactive: -0.1%
17,CCN1CCC(Nc2ccc(Cl)cc2)CC1,inactive: -0.19%
18,CN1CCC(Nc2cccc(F)c2)CC1,inactive: -0.85%
19,O=C(NCC1(N2CCCCC2)CCCCC1)c1cncc(Br)c1,inactive: -0.44%
20,CCCOc1ccc(C(=O)NCC2(N(C)C)CCCCC2)cc1OC,inactive: -0.01%
21,Cc1ccc(C(=O)NCC2(N(C)C)CCCCC2)o1,inactive: -0.08%
22,COc1ccc(C(c2nnnn2C2CCCC2)N2CCC(n3c(=O)[nH]c4ccccc43)CC2)cc1 (stereo not drawn),inactive: -0.07%

row,SMILES,inhibition
1,CN(C)c1cccc(C(=O)NCC2(N3CCCCC3)CCCCC2)c1,inactive: -0.37%
2,COc1ccc(CN(CCCl)CCCl)cc1Cl,inactive: -0.41%
3,CCCCn1nnnc1C(c1ccccc1OC(F)(F)F)N1CCC(n2c(=O)[nH]c3ccccc32)CC1 (stereo not drawn),inactive: 0.05%
4,CC(C)c1ccc(NC2CCN(C(=O)OC(C)(C)C)CC2)cc1,inactive: 0.19%
5,CCCCn1nnnc1C(c1ccnc2ccccc12)N1CCC(n2c(=O)[nH]c3ccccc32)CC1 (stereo not drawn),inactive: -0.72%
6,CCC(c1nnnn1C(C)(C)C)N1CCC(n2c(=O)[nH]c3ccccc32)CC1 (stereo not drawn),inactive: 0.02%
7,O=C(NCC1(N2CCOCC2)CCCCC1)c1cc(F)c(F)cc1Cl,inactive: -0.23%
8,COc1cc(OC)c(C(=O)NCC2(N(C)C)CCCCC2)cc1OC,inactive: -0.79%
9,O=C(NCC1(N2CCOCC2)CCCCC1)c1cc2ccccc2o1,inactive: -0.18%
10,Cc1cc(C)cc(N(C(=O)c2ccccc2)C2CCN(C(=O)OC(C)(C)C)CC2)c1,inactive: -0.95%
11,O=C(NCC1(N2CCCCC2)CCCCC1)c1ccc(Cl)nc1,inactive: 0.35%
12,O=c1[nH]c2ccccc2n1C1CCN(C(c2ccccc2OC(F)(F)F)c2nnnn2C2CCCCC2)CC1 (stereo not drawn),inactive: -0.19%
13,CCCCn1nnnc1C(c1ccc(OC)cc1)N1CCC(n2c(=O)[nH]c3ccccc32)CC1 (stereo not drawn),inactive: -1.16%
14,CCOC(=O)N1CCC(Nc2ccc(OC)cc2)CC1,inactive: -0.6%
15,COc1ccc(Cl)cc1C(=O)NCC1(N2CCOCC2)CCCCC1,inactive: -0.17%
16,O=C(NCC1(N2CCCCC2)CCCCC1)c1ccc(Cl)s1,inactive: -0.15%
17,N#CC1(Nc2ccccc2)CCN(Cc2ccccc2)CC1,inactive: -0.01%
18,O=C(OC1CN2CCC1CC2)C1c2ccccc2Oc2ccccc21 (stereo not drawn),inactive: 0.02%
19,O=c1[nH]c2ccccc2n1C1CCN(C(c2cc3ccccc3o2)c2nnnn2C2CCCCC2)CC1 (stereo not drawn),inactive: 0.13%
20,O=C(NCC1(N2CCCCC2)CCCCC1)c1cccs1,inactive: -0.29%
21,CCCCn1nnnc1C(CC)N1CCC(n2c(=O)[nH]c3ccccc32)CC1 (stereo not drawn),inactive: -0.31%
22,CCCCn1nnnc1C(c1cccs1)N1CCC(n2c(=O)[nH]c3ccccc32)CC1 (stereo not drawn),inactive: -1.18%

row,SMILES,inhibition
1,O=C(NCC1(N2CCCCC2)CCCCC1)c1ccc(=O)[nH]c1,inactive: -0.15%
2,CC(C)(C)OC(=O)N1CCC(N(C(=O)c2ccccc2)c2ccc(F)cc2)CC1,inactive: -0.94%
3,COc1ccc(C(=O)NCC2(N3CCCCC3)CCCCC2)c(OC)c1OC,inactive: -1.01%
4,CCC(c1nnnn1C1CCCC1)N1CCC(n2c(=O)[nH]c3ccccc32)CC1 (stereo not drawn),inactive: 0.61%
5,COc1ccc(C(=O)NCC2(N3CCCCC3)CCCCC2)cc1,inactive: -0.29%
6,Cc1cccc(NC2(C#N)CCN(Cc3ccccc3)CC2)c1,inactive: -0.04%
7,CSc1ccccc1C(=O)NCC1(N2CCCCC2)CCCCC1,inactive: -0.7%
8,O=c1[nH]c2ccccc2n1C1CCN(C(c2ccccc2)c2nnnn2C2CCCCC2)CC1 (stereo not drawn),inactive: 0.14%
9,O=c1[nH]c2ccccc2n1C1CCN(C(c2cccc3ccccc23)c2nnnn2C2CCCC2)CC1 (stereo not drawn),inactive: -0.27%
10,CCOC(=O)N1CCC(Nc2cccc(C)c2)CC1,inactive: -0.03%
11,COc1cc(C(=O)NCC2(N(C)C)CCCCC2)ccc1OC(F)F,inactive: -1.64%
12,CCOc1ccc(C)cc1CN(CCCl)CCCl,inactive: -0.2%
13,O=C1CCN(Cc2ccccc2)CC1,inactive: 1.8%
14,CC(C)(C)n1nnnc1C(c1ccccc1)N1CCC(n2c(=O)[nH]c3ccccc32)CC1 (stereo not drawn),inactive: -0.12%
15,COc1ccc(NC2CCN(CCc3ccccc3)CC2)c(OC)c1,inactive: -1.01%
16,CCOC(=O)N1CCC(Nc2ccc(F)cc2)CC1,inactive: -0.34%
17,CCCCn1nnnc1C(c1cc2ccccc2o1)N1CCC(n2c(=O)[nH]c3ccccc32)CC1 (stereo not drawn),inactive: -0.41%
18,O=P1(N(CCCl)CCCl)SCCCS1,inactive: -0.46%
19,CCCCOc1ccc(C(=O)NCC2(N3CCOCC3)CCCCC2)cc1,inactive: -0.58%
20,O=C(NCC1(N2CCCCC2)CCCCC1)c1ccc(F)cc1,inactive: 0.39%
